Assay results published in paper PMC3032773, “Solid Tumor-Targeted Infiltrating Cytotoxic T Lymphocytes Retained by a Superantigen Fusion Protein” (2011).

Target: EGF receptor of S180 cells (mouse (endogenous in S180)) (UniProt Q01279)
Test: flow cytometry on cells

Q: For “LSS670-labeled EGF-SEA (from UniProt P0A0L2 25-257)”, which percent of S180 cells coated (125 pmol EGF-SEA) is on record?
A: 95%
